Laboratory results published in patent US20240270762A1, “PENICILLIN-BINDING PROTEIN INHIBITORS” (priority 2021, published 2024).

Protein sequences, listed by entry. Tags and fused reporters are not part of them. Residues count along the entry.
UniProt A0ABX6CK25, 64-610 limits assumed: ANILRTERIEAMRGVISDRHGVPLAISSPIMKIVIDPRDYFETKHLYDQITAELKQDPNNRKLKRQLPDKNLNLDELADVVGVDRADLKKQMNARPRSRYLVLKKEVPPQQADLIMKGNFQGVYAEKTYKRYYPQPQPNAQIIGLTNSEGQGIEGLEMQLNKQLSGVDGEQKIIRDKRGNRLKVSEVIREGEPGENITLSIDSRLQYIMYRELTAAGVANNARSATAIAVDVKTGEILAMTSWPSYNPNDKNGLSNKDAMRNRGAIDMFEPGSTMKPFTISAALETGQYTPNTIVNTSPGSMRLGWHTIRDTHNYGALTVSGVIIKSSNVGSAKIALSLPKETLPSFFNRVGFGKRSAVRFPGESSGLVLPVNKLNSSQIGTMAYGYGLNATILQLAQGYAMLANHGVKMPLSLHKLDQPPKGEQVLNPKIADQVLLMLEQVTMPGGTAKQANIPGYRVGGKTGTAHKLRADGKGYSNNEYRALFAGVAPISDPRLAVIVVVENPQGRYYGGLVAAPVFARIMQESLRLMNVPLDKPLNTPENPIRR
UniProt D0C8Z9, whole entry: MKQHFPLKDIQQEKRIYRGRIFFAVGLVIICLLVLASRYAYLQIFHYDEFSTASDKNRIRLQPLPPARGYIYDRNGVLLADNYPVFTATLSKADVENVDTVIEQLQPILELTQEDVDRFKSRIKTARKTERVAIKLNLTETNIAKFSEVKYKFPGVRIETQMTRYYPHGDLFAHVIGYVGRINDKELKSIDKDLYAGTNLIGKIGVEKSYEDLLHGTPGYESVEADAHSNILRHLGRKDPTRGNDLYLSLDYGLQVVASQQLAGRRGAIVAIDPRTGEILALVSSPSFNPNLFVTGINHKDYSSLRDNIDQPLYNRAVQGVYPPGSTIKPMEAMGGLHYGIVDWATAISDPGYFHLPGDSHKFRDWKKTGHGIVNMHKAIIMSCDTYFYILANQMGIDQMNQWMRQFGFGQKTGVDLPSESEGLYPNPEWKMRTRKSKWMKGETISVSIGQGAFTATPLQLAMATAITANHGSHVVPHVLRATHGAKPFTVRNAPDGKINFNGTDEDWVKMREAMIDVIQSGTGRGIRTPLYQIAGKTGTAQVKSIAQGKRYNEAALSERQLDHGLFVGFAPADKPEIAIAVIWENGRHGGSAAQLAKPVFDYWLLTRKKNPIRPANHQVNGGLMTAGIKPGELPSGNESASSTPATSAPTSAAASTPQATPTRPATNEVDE
UniProt A0ABX6CK30, 1-851: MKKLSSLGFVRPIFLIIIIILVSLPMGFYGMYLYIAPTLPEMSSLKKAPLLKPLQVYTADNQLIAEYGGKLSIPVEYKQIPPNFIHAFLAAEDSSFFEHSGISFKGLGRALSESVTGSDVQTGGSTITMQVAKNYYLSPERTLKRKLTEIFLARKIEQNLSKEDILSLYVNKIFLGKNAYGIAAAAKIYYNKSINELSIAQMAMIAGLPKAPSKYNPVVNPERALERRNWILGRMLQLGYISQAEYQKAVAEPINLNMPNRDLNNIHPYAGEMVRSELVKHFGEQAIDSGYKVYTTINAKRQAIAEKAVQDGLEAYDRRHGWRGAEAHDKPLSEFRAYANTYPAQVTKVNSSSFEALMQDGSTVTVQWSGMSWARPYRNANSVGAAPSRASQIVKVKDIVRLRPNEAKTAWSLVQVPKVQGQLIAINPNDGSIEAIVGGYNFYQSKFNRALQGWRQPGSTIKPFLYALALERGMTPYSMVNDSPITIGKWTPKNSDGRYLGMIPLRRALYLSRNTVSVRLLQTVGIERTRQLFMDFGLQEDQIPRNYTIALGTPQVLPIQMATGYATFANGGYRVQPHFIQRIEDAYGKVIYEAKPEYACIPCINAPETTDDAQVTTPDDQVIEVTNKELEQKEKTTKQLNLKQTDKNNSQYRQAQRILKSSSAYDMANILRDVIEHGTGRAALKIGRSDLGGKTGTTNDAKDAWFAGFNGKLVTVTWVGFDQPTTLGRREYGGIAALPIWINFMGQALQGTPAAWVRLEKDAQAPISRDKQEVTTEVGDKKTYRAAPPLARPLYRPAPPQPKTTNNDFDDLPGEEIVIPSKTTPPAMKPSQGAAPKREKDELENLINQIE
UniProt G3XD46, whole entry: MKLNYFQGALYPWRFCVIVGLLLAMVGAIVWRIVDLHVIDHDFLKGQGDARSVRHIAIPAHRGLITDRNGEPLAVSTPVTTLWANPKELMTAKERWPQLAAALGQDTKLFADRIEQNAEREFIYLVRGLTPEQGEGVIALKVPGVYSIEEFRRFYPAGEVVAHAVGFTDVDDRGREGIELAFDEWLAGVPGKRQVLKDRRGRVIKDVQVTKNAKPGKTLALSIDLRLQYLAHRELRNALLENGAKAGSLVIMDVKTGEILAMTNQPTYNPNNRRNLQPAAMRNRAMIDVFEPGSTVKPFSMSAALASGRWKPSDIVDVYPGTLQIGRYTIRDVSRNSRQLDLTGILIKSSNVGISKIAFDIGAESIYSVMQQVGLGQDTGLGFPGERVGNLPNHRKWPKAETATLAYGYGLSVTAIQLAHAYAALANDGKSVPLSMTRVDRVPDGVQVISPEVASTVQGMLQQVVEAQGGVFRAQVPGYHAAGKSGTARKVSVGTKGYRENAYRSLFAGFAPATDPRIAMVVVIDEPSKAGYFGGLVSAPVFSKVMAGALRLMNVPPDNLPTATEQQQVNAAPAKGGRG

Experiments:
[1] = molecular target: PBP3 from Acinetobacter baumannii (ATCC 19606) (Acinetobacter baumannii, UniProt A0ABX6CK25); experiment: Bocillin-FL fluorescence polarization competition binding, A. baumannii PBP3; settings: fluorescence polarization competition binding assay using Bocillin-FL
Source text: (§1) To determine the ability of boronic acid-based test PBP inhibitors to bind Penicillin Binding Proteins (PBPs), Bocillin-FL (fluorescently-labeled penicillin V; ThermoFisher Scientific) was used in a fluorescence polarization (FP) competition binding assay to assess inhibitor binding to PBP3 from Escherichia coli (K-12), PBP3 from Pseudomonas aeruginosa (PAO1), PBP1a and PBP3 from Acinetobacter baumannii (ATCC 19606), and PBP2 from Neisseria gonorrhoeae (FA19). PBPs were cloned and purified as described previously (E. coli PBP3, King, D. T, et al., ACS Infectious Diseases 2015, 1, 175-184; P. aeruginosa PBP3, Han et. al., PNAS 2010, 107 (51), 22002-22007; A. baumannii PBPs, Penwell et. al., Antimicrob. Agents Chemother. 2015, 59 (3), 1680-1689; N. gonorrhoeae PBP2, Singh et. al., J. Biol. Chem. 2019, 294 (38), 14020-14032). To establish assay conditions for competition binding, enzyme titration/saturation binding experiments were initially performed. […] FP was measured immediately upon mixing (Excitation, 490 nm; Emission, 520 nm; g-factor, 0.96), using a Cytation3 (BioTek) microplate reader and measured continuously for up to 120 minutes. […] For N. gonorrhoeae PBP2 assays, cefixime, ceftriaxone was mixed with Bocillin-FL, then enzyme was added, and the FP was immediately measured for up to 30 minutes. […]

A. baumannii PBP2 = A. baumannii PBP2 (Acinetobacter baumannii, UniProt D0C8Z9); experiment: Bocillin-FL competition binding via gel filtration, A. baumannii PBP2; settings: read-out: A. baumannii PBP2 Potency; competition binding assay using Bocillin-FL via gel filtration
Protocol: Affinity to A. baumannii PBP1a and PBP2 was assessed a competitive equilibrium binding assay using Bocillin-FL as the reporter molecule. Enzyme was pre-incubated with increasing concentrations of inhibitors, prior to addition of Bocillin and further incubation for 15 minutes. PBP bound with Bocillin-FL was separated by gel filtration using 96-well Zeba Spin size exclusion plates, and the fluorescence measured. The inhibitor affinity (reported as the EC50) was determined by plotting the fraction of PBP bound with Bocillin-FL at each inhibitor concentration against the inhibitor concentration, and fitting the data to the following equation:
[formula] • where y is the fraction bound at a given inhibitor concentration, ymin is the fraction bound when the enzyme is completely inactivated, ymax is the maximum (uninhibited) fraction bound, n is the Hill coefficient, and x is the inhibitor concentration.

A. baumannii PBP1a = A. baumannii PBP1a (Acinetobacter baumannii, UniProt A0ABX6CK30); experiment: Bocillin-FL competition binding via gel filtration, A. baumannii PBP1a; settings: read-out: A. baumannii PBP1a Potency; competition binding assay using Bocillin-FL via gel filtration
A. baumannii CDC-0036 = experiment: Broth microdilution MIC in iron-depleted CAMHB (IDM)
[2] = test system: P. aeruginosa (ΔmexAB-oprM); experiment: as above; settings: ΔmexAB-oprM (efflux pump-compromised)
P. aeruginosa ATCC 27853 = experiment: as above
P. aeruginosa CDC-0110 = experiment: as above
A. baumannii 1258916 = experiment: as above
A. baumannii ATCC 19606 = experiment: as above
A. baumannii ATCC 17978 = experiment: as above
[3] = test system: B. humptydooensis ATCC BAA-2767; experiment: as above
A. baumannii CDC-0033 = experiment: as above
[4] = test system: B. thailandensis ATCC 700388; experiment: as above
P. aeruginosa CDC-0090 = experiment: as above
P. aeruginosa ATCC 35151 = experiment: as above; settings: ATCC 35151 (hyper-permeable)
A. baumannii CDC-0045 = experiment: as above
P. aeruginosa CDC-0095 = experiment: as above
P. aeruginosa CDC-0054 = experiment: as above
[5] = molecular target: PBP3 from Pseudomonas aeruginosa (PAO1) (Pseudomonas aeruginosa, UniProt G3XD46); experiment: Bocillin-FL fluorescence polarization competition binding, P. aeruginosa PBP3; settings: read-out: P. aeruginosa PBP3 Potency; Binding affinity to P. aeruginosa PBP3; fluorescence polarization competition binding assay using Bocillin-FL
Source text: as §1

In the case of O=C(O)c1c(F)ccc2c1OB(O)[C@@H](NC(=O)C(NC(=O)N1CCN(C3CCN(C(=O)Nc4cc(F)c(F)c(O)c4F)CC3)C1=O)c1cc(F)c(O)c(O)c1Cl)C2 (some centres unmarked), the “A. baumannii PBP3 Potency” value [1] is reported as “D (D represents potency <10 μM)”, the EC50 (A. baumannii PBP2) is reported as under 10 µM and the EC50 (A. baumannii PBP1a) is reported as under 10 µM. For the same compound, the “MIC, A. baumannii CDC-0036” value (A. baumannii CDC-0036) was “E (E represents an MIC≤1 μg/mL)”, the “Minimum inhibitory concentration, P. aeruginosa ΔmexAB-oprM” value [2] was “E (E represents an MIC≤1 μg/mL)” and the “Minimum inhibitory concentration, P. aeruginosa ATCC 27853” value (P. aeruginosa ATCC 27853) was “D (D represents an MIC from 2 to 4 μg/mL)”. The “Minimum inhibitory concentration, P. aeruginosa CDC-0110” value (P. aeruginosa CDC-0110) was “E (E represents an MIC≤1 μg/mL)”, the “MIC, A. baumannii 1258916” value (A. baumannii 1258916) was “E (E represents an MIC≤1 μg/mL)” and the “MIC, A. baumannii ATCC 19606” value (A. baumannii ATCC 19606) was “E (E represents an MIC≤1 μg/mL)”. For the same compound, the “MIC, A. baumannii ATCC 17978” value (A. baumannii ATCC 17978) was “E (E represents an MIC≤1 μg/mL)”, the “Minimum inhibitory concentration (MIC), B. humptydooensis ATCC BAA-2767” value [3] was “E (E represents an MIC≤1 μg/mL)” and the “MIC, A. baumannii CDC-0033” value (A. baumannii CDC-0033) was “D (D represents an MIC from 2 to 4 μg/mL)”. For the same compound, the “Minimum inhibitory concentration (MIC), B. thailandensis ATCC 700388” value [4] was “E (E represents an MIC≤1 μg/mL)”, the “Minimum inhibitory concentration, P. aeruginosa CDC-0090” value (P. aeruginosa CDC-0090) was “D (D represents an MIC from 2 to 4 μg/mL)” and the “Minimum inhibitory concentration, P. aeruginosa ATCC 35151” value (P. aeruginosa ATCC 35151) was “E (E represents an MIC≤1 μg/mL)”. For the same compound, the “MIC, A. baumannii CDC-0045” value (A. baumannii CDC-0045) was “E (E represents an MIC≤1 μg/mL)”, the “Minimum inhibitory concentration, P. aeruginosa CDC-0095” value (P. aeruginosa CDC-0095) was “C (C represents an MIC from 8 to 16 μg/mL)” and the “Minimum inhibitory concentration, P. aeruginosa CDC-0054” value (P. aeruginosa CDC-0054) was “E (E represents an MIC≤1 μg/mL)”. It also gave an IC50 [5] of under 10 µM.
O=C(NCCCS(=O)(=O)N1CCN(C(=O)N[C@@H](C(=O)N[C@H]2Cc3ccc(F)c(C(=O)O)c3OB2O)c2ccc(P(=O)(O)O)cc2)C1=O)c1ccc(O)c(O)c1Cl was tested, and the “A. baumannii PBP3 Potency” value [1] was “D (D represents potency <10 μM)”, the EC50 (A. baumannii PBP2) was 50 to 250 µM and the EC50 (A. baumannii PBP1a) was 50 to 250 µM. For the same compound, the “MIC, A. baumannii CDC-0036” value (A. baumannii CDC-0036) was “A (A represents an MIC≥128 μg/mL)”, the “Minimum inhibitory concentration, P. aeruginosa ΔmexAB-oprM” value [2] was “A (A represents an MIC≥128 μg/mL)” and the “Minimum inhibitory concentration, P. aeruginosa ATCC 27853” value (P. aeruginosa ATCC 27853) was “A (A represents an MIC≥128 μg/mL)”. The “Minimum inhibitory concentration, P. aeruginosa CDC-0110” value (P. aeruginosa CDC-0110) was “A (A represents an MIC≥128 μg/mL)”, the “MIC, A. baumannii 1258916” value (A. baumannii 1258916) was “A (A represents an MIC≥128 μg/mL)” and the “MIC, A. baumannii ATCC 19606” value (A. baumannii ATCC 19606) was “E (E represents an MIC≤1 μg/mL)”. For the same compound, the “MIC, A. baumannii ATCC 17978” value (A. baumannii ATCC 17978) was “E (E represents an MIC≤1 μg/mL)”, the “Minimum inhibitory concentration (MIC), B. humptydooensis ATCC BAA-2767” value [3] was “A (A represents an MIC≥128 μg/mL)” and the “MIC, A. baumannii CDC-0033” value (A. baumannii CDC-0033) was “A (A represents an MIC≥128 μg/mL)”. For the same compound, the “Minimum inhibitory concentration (MIC), B. thailandensis ATCC 700388” value [4] was “A (A represents an MIC≥128 μg/mL)”, the “Minimum inhibitory concentration, P. aeruginosa CDC-0090” value (P. aeruginosa CDC-0090) was “A (A represents an MIC≥128 μg/mL)” and the “Minimum inhibitory concentration, P. aeruginosa ATCC 35151” value (P. aeruginosa ATCC 35151) was “D (D represents an MIC from 2 to 4 μg/mL)”. The “MIC, A. baumannii CDC-0045” value (A. baumannii CDC-0045) was “A (A represents an MIC≥128 μg/mL)”, the “Minimum inhibitory concentration, P. aeruginosa CDC-0095” value (P. aeruginosa CDC-0095) was “A (A represents an MIC≥128 μg/mL)” and the “Minimum inhibitory concentration, P. aeruginosa CDC-0054” value (P. aeruginosa CDC-0054) was “A (A represents an MIC≥128 μg/mL)”. The IC50 [5] was 10 to 50 µM.
